Measured values from several laboratories, pooled; numbers as filed in NIAID ChemDB.

Common to all: whole-cell or culture tests; species: Candida krusei

Blank or dashed fields: not listed here. Rows are shuffled and stem from different studies. MIC50, MIC90 and the like: level of inhibition, or share of isolates inhibited.

{"smiles": "Cc1ccc(C(O)c2cccc(C(=O)CCn3ccnc3)c2)cc1", "method": "broth dilution", "measure": "MIC", "strain": "RTCC 1090", "result": ">64 µg/mL"}
{"smiles": "CCOC(=O)C1C(=O)C=C(c2ccc(OC)cc2)CC1c1ccc(C2CC(c3ccc(OC)cc3)=CC(=O)C2C(=O)OCC)cc1", "measure": "MIC", "strain": "Clinical isolate", "result": "100 µg/mL"}
{"smiles": "O=C(/C=C/c1ccc(Cl)cc1Cl)c1c[nH]c2ccccc12", "method": "broth dilution", "measure": "MIC", "strain": "NRRL Y-7179", "result": "200 µg/mL"}
{"smiles": "O=C(CCn1ccnc1)c1ccc(Cl)cc1", "method": "broth dilution", "measure": "MIC", "strain": "RTCC 1090", "result": ">64 µg/mL"}
{"smiles": "CN(CC(=O)Nc1cccc([N+](=O)[O-])c1)CC(O)(Cn1cncn1)c1ccc(F)cc1F", "measure": "MIC80", "result": ">64 µg/mL"}
{"smiles": "CCCCCOc1ccc(-c2cc(-c3ccc(C(=O)N[C@H]4C[C@@H](O)[C@@H](O)NC(=O)[C@@H]5[C@@H](O)[C@@H](C)CN5C(=O)[C@H]([C@H](O)CC(N)=O)NC(=O)[C@H]([C@H](O)[C@@H](O)c5ccc(O)c(OS(=O)(=O)O)c5)NC(=O)[C@@H]5C[C@@H](O)CN5C(=O)[C@H]([C@@H](C)O)NC4=O)cc3)no2)cc1", "method": "broth dilution", "measure": "MIC50", "result": "0.06 µg/mL"}
{"smiles": "CCCCCCCCCCCCCCn1cc[n+](COCCCCCCOC[n+]2ccn(CCCCCCCCCCCCCC)c2)c1", "method": "agar diffusion", "measure": "MIC100", "strain": "ATCC 6258", "result": "2 µM"}
{"smiles": "C[C@@H]([C@H](N)C(=O)N[C@H](C(=O)O)[C@H]1O[C@@H](n2ccc(=O)[nH]c2=O)[C@H](O)[C@@H]1O)[C@H](O)c1ccc(O)cn1", "method": "visual reading", "measure": "MIC", "result": ">500 µg/mL"}
{"smiles": "O=C(CCn1ccnc1)c1cccc(C(O)c2ccc(Cl)cc2)c1", "method": "broth dilution", "measure": "MIC", "strain": "RTCC 1001", "result": "64 µg/mL"}
{"smiles": "Cc1ccc(-c2c3c(N)c4c(nc3nc3c2c(C)nn3-c2ccccc2)CCC4)cc1", "method": "broth dilution / absorbance", "measure": "MIC100", "strain": "CCC 117", "result": "125 µg/mL"}
{"smiles": "C[C@@H](c1ncncc1F)[C@](O)(Cn1cncn1)c1ccc(F)cc1F", "method": "broth dilution", "measure": "MIC50", "result": "0.25 µg/mL"}
{"smiles": "CN(CC(=O)Nc1ccc(F)cc1)CC(O)(Cn1cncn1)c1ccc(F)cc1F", "measure": "MIC80", "result": "64 µg/mL"}
{"smiles": "Cc1ccc(-c2c3c(N)c4c(nc3nc3c2c(C)nn3-c2ccccc2)CCCCC4)cc1", "method": "broth dilution / absorbance", "measure": "MIC80", "strain": "CCC 117", "result": "62.5 µg/mL"}
{"smiles": "O=C(CCn1ccnc1)c1cccc2ccccc12", "method": "broth dilution", "measure": "MIC", "strain": "RTCC 1090", "result": ">64 µg/mL"}
{"smiles": "C[C@H]1[C@H](O)[C@@H](C)/C=C/C=C/C=C/C=C/C=C/C=C/C=C/[C@H](O[C@@H]2O[C@H](C)[C@@H](O)[C@H](N)[C@@H]2O)C[C@@H]2O[C@](O)(C[C@@H](O)C[C@@H](O)CC[C@H](O)[C@@H](O)C[C@@H](O)CC(=O)O[C@H]1C)C[C@H](O)[C@H]2C(=O)O", "method": "broth dilution", "setting": "48 h", "measure": "MIC", "strain": "NBRC 1395", "result": "2 µg/mL"}
{"smiles": "Cc1ccc(-c2c3c(N)c4c(nc3nc3c2c(C)nn3-c2ccccc2)CCCC4)cc1", "method": "broth dilution / absorbance", "measure": "MIC100", "strain": "CCC 117", "result": "15.6 µg/mL"}
{"smiles": "Cc1ccc(N2N=C(c3c[nH]c4ccccc34)CC2c2ccc(Cl)c(Cl)c2)cc1", "method": "broth dilution", "measure": "MIC", "strain": "NRRL Y-7179", "result": "50 µg/mL"}
{"smiles": "C[n+]1ccn(COCCCCCOCn2cc[n+](C)c2)c1", "method": "agar diffusion", "measure": "MIC100", "strain": "ATCC 6258", "result": "109 µM"}
{"smiles": "Cc1ccc(C(O)c2cccc(C(O)CCn3ccnc3)c2)cc1", "method": "broth dilution", "measure": "MIC", "strain": "RTCC 1001", "result": ">64 µg/mL"}
{"smiles": "Cc1ccc(N2N=C(c3c[nH]c4ccccc34)CC2c2cc(Cl)ccc2Cl)cc1", "method": "broth dilution", "measure": "MIC", "strain": "NRRL Y-7179", "result": "50 µg/mL"}
{"smiles": "O=C1C=CC[C@H](/C=C/c2ccccc2)O1", "method": "broth dilution", "measure": "MIC", "result": "62.1 µg/mL"}
{"smiles": "CN(CC(=O)Nc1ccc(OC(F)(F)F)cc1)CC(O)(Cn1cncn1)c1ccc(F)cc1F", "measure": "MIC80", "result": "4 µg/mL"}
{"smiles": "CCCCCn1cc[n+](COCCCCOC[n+]2ccn(CCCCC)c2)c1", "method": "agar diffusion", "measure": "MIC100", "strain": "ATCC 6258", "result": "1338 µM"}
{"smiles": "O=C(/C=C/c1cccc(Cl)c1Cl)c1c[nH]c2ccccc12", "method": "broth dilution", "measure": "MIC", "strain": "NRRL Y-7179", "result": "200 µg/mL"}
{"smiles": "C[n+]1ccn(COCCCCOCn2cc[n+](C)c2)c1", "method": "agar diffusion", "measure": "MIC100", "strain": "ATCC 6258", "result": "114 µM"}
{"smiles": "C[C@H]1[C@H](O)[C@@H](C)/C=C/C=C/C=C/C=C/C=C/C=C/C=C/[C@H](O[C@@H]2O[C@H](C)[C@@H](O)[C@H](N)[C@@H]2O)C[C@@H]2O[C@](O)(C[C@@H](O)C[C@@H](O)CC[C@H](O)[C@@H](O)C[C@@H](O)CC(=O)O[C@H]1C)C[C@H](O)[C@H]2C(=O)O", "method": "broth dilution / absorbance", "measure": "MIC99", "strain": "ATCC 6258", "result": "0.78 µM"}
{"smiles": "O=C(CCn1ccnc1)c1cccc(C(O)c2ccc(Br)cc2)c1", "method": "broth dilution", "measure": "MIC", "strain": "RTCC 1001", "result": ">64 µg/mL"}
{"smiles": "CCCCn1cc[n+](COCCOC[n+]2ccn(CCCC)c2)c1", "method": "agar diffusion", "measure": "MIC100", "strain": "ATCC 6258", "result": "1634 µM"}
{"smiles": "O=c1cc(CO)occ1O", "measure": "MIC99", "strain": "ATCC 6258", "result": ">12800 µM"}
{"smiles": "CCCCCCCCCCCn1cc[n+](COCCCOC[n+]2ccn(CCCCCCCCCCC)c2)c1", "method": "agar diffusion", "measure": "MIC100", "strain": "ATCC 6258", "result": "8 µM"}
{"smiles": "CCOC(=O)C1C(=O)C=C(c2ccc(F)cc2)CC1c1ccc(C2CC(c3ccc(F)cc3)=CC(=O)C2C(=O)OCC)cc1", "measure": "MIC", "strain": "Clinical isolate", "result": "6.25 µg/mL"}
{"smiles": "COc1ccccc1NC(=O)CN(C)CC(O)(Cn1cncn1)c1ccc(F)cc1F", "measure": "MIC80", "result": "4 µg/mL"}
{"smiles": "O=C(CCn1ccnc1)c1ccc(-c2ccccc2)cc1", "method": "broth dilution", "measure": "MIC", "strain": "RTCC 1001", "result": "8 µg/mL"}
{"smiles": "CN(CC(=O)Nc1ccccc1[N+](=O)[O-])CC(O)(Cn1cncn1)c1ccc(F)cc1F", "measure": "MIC80", "result": "4 µg/mL"}
{"smiles": "CCCCCCCCCCCn1cc[n+](COCCCCOC[n+]2ccn(CCCCCCCCCCC)c2)c1", "method": "agar diffusion", "measure": "MIC100", "strain": "ATCC 6258", "result": "8 µM"}
{"smiles": "CCOC(=O)C1C(=O)C=C(c2ccc(C)cc2)CC1c1ccc(C2CC(c3ccc(C)cc3)=CC(=O)C2C(=O)OCC)cc1", "measure": "MIC", "strain": "Clinical isolate", "result": "25 µg/mL"}

Again, the opening 3 rows:

| smiles | method | setting | measure | strain | result |
|---|---|---|---|---|---|
| Cc1ccc(C(O)c2cccc(C(=O)CCn3ccnc3)c2)cc1 | broth dilution | - | MIC | RTCC 1090 | >64 µg/mL |
| CCOC(=O)C1C(=O)C=C(c2ccc(OC)cc2)CC1c1ccc(C2CC(c3ccc(OC)cc3)=CC(=O)C2C(=O)OCC)cc1 | - | - | MIC | Clinical isolate | 100 µg/mL |
| O=C(/C=C/c1ccc(Cl)cc1Cl)c1c[nH]c2ccccc12 | broth dilution | - | MIC | NRRL Y-7179 | 200 µg/mL |